Anti-infective test results gathered from many reports (values: NIAID ChemDB through PubChem).

Common to all: whole-cell or culture tests; agent: Mycobacterium tuberculosis

Conditions beyond the fields shown may differ between rows. ECn is the concentration giving n% inhibition of infection, replication or growth. Inhibition is in % at the dose shown (toxicity tests: loss of growth or viability). A number after MIC or MFC names an inhibition level or a share of isolates. MIC bound: limit read from a one-dose screen. Blank or dashed fields: not listed here.

smiles,endpoint,strain,dose,method,result
Cc1[nH][nH]c(=O)c1N=Nc1ccc(-c2n[nH]c(=O)n2-c2ccccc2)cc1,MIC,H37Rv,,,>12.5 µg/mL
N#CCCCCNC(=O)C1CCC(=O)N1,MIC bound,H37Rv,,BACTEC,>12.5 µg/mL
Cn1c(NNc2nc(NCc3ccco3)nc(NCc3ccco3)n2)nc(-c2ccccc2)c(C#N)c1=O,MIC,H37Rv,,,>12.5 µg/mL
NC(=S)c1ccc(Cl)cc1,MIC,H37Rv (INH-resistant),,,512 µM
COc1cc([C@](O)(CCN(C)C)[C@@H](c2cc(-c3ccc(C)cc3)cnc2OC)c2cccc(OC)c2F)cc(OC)n1,MIC90,H37Rv,,resazurin,1.99 µM
NC[C@H]1O[C@H](O[C@H]2[C@H](O)[C@@H](O[C@H]3O[C@H](CO)[C@@H](O)[C@H](N)[C@H]3O)[C@H](N)C[C@@H]2N)[C@H](O)[C@@H](O)[C@@H]1O,MIC,H37RV (DL8280-R),,,25 µg/mL
O=C1C=C(Nc2ncn[nH]2)c2ccccc2C1=O,inhibition,H37Rv,6.25 µg/mL,,18%
CCOC(=O)Cc1cc(C2CCCCC2)nc2ccccc12,MIC,H37Rv,,,>6.25 µg/mL
COc1cc([C@@](O)(CCN(C)C)[C@H](c2cc(-c3ccc(OC(F)(F)F)cc3)cnc2OC)c2cccc(OC)c2F)cc(OC)n1,MIC90,H37Rv,,resazurin,>10 µM
O=[N+]([O-])c1cn2c(n1)OC[C@@H](OCc1ccc(N3CCC(Oc4ccc(C(F)(F)F)nc4)CC3)cc1)C2,MIC90,,,low oxygen,0.95 µM
CCCCC[C@H]1CCCCCCCCCC(=O)O[C@H]2[C@H](O)[C@@H](CO)OC(O[C@H]3[C@H](O1)O[C@H](C)[C@H](O)[C@@H]3O)[C@@H]2OC1O[C@@H](C)[C@H](OC(=O)C(C)CC)[C@@H](OC2O[C@@H](C)[C@H](O)[C@@H](O)[C@H]2O)[C@H]1OC(=O)C(C)CC,MIC,,,,16 µg/mL
Cc1ccc(NC(=O)CC(=O)Nc2ccc(C)c(Cl)c2)cc1Cl,MIC,,,,37 µM
CO[C@H](C)[C@@](O)(C(=O)OCC1=CCN2CC[C@H](O)[C@@H]12)C(C)C,MIC,H37Rv,,BACTEC,≥128 µg/mL
COC(=O)Cc1cc(C2CCCC2)nc2ccccc12,MIC,H37Rv,,,>6.25 µg/mL
NC(=S)c1ccc([N+](=O)[O-])cc1,MIC,H37Rv,,,1024 µM
Cc1ccc(COc2ccc(-c3nc(N)nc(N)n3)cc2)cc1,MIC,H37Rv,,resazurin,29.45 µM
O=[N+]([O-])c1cn2c(n1)OC[C@@H](OCc1ccc(C#Cc3ccc(C(F)(F)F)cc3)nc1)C2,MIC90,,,resazurin,0.04 µM
CCn1c(-c2ccc(N=Nc3c(C)[nH][nH]c3=O)cc2)n[nH]c1=S,inhibition,H37Rv,12.5 µg/mL,,0%
COc1ccc(COc2ccc(-c3nc(N)nc(N)n3)cc2OC)cc1,MIC,H37Rv,,resazurin,3.91 µM
CCn1c(-c2ccc(N=Nc3c(C)[nH]n(-c4ccccc4)c3=O)cc2)n[nH]c1=S,MIC,H37Rv,,,>12.5 µg/mL
c1cc2c(N3CCOCC3)cc(N3CCOCC3)nc2nc1N1CCCCC1,inhibition,H37Rv,6.25 µg/mL,BACTEC,0%
Cc1ccc(NC(=O)C(=O)Nc2ccc(C)cc2)cc1,MIC,,,,>1000 µM
O=C(O)c1cc(C2CCCC2)nc2ccccc12,MIC,H37Rv,,,>6.25 µg/mL
Cn1c(NNc2nc(Nc3cc(Cl)cc(Cl)c3)nc(Nc3cc(Cl)cc(Cl)c3)n2)nc(-c2ccc(Cl)cc2)c(C#N)c1=O,inhibition,H37Rv,12.5 µg/mL,,66%
O=[N+]([O-])c1cn2c(n1)OC[C@@H](OCc1ccc(/C=C/c3ccc(C(F)(F)F)cc3)cc1)C2,MIC90,,,low oxygen,15 µM
Cc1ccc2[nH]c3nc4cc(C)c(C)cc4nc3c2c1,MIC bound,H37Rv,,BACTEC,>12.5 µg/mL
CC1COc2c(N3CCN(C)CC3)c(F)cc3c(=O)c(C(=O)O)cn1c23,MIC,H37RV (ETH-R),,,1.25 µg/mL
NC(=S)c1ccncc1,MIC,H37Rv (drug-susceptible),,,128 µM
O=C(Nc1ccc(C2=NCCN2)c(O)c1)c1ccc(C(=O)Nc2ccc(C3=NCCN3)c(O)c2)cc1,inhibition,H37Rv,12.5 µg/mL,BACTEC,0%
CCCCC[C@H]1CCCCCCCCCC(=O)O[C@H]2[C@H](O)[C@@H](CO)OC(O[C@H]3[C@H](O1)O[C@H](C)[C@H](O)[C@@H]3O)[C@@H]2OC1O[C@@H](C)[C@H](OC(=O)C(C)C)[C@@H](OC2O[C@@H](C)[C@H](O)[C@@H](O)[C@H]2O)[C@H]1OC(=O)C(C)CC,MIC,,,,16 µg/mL
CC(Oc1ccc(-c2nc(N)nc(N)n2)cc1)c1ccc(F)cc1,MIC,H37Rv,,resazurin,67.81 µM
Cc1ccc2c(Cl)c(C)c(N3CCCCC3)nc2n1,EC50,H37Rv,,BACTEC,>6.25 µg/mL
CCOC(=O)/C(N=Nc1ccc(-c2n[nH]c(=O)n2-c2ccccc2)cc1)=C(\C)O,inhibition,H37Rv,12.5 µg/mL,,0%
CCCCCCCCCCCCc1cc2cccc(O)c2c(O)c1C(=O)O,MIC,,,,>128 µg/mL
O=[N+]([O-])c1cn2c(n1)OC[C@@H](OCc1ccnc(N3CCC(Oc4ccc(OC(F)(F)F)cc4)CC3)c1)C2,MIC90,,,resazurin,0.25 µM
Nc1nc(N)nc(-c2ccc(OCc3cccc(Cl)c3)cc2)n1,MIC,H37Rv,,resazurin,1.57 µM
CCNC(=O)CNC(=O)C(Cc1ccc([N+](=O)[O-])cc1)NC(=O)OC(C)(C)C,MIC bound,H37Rv,,BACTEC,>12.5 µg/mL
Cc1ccc2c(Cl)c(C)c(Cl)nc2n1,inhibition,H37Rv,6.25 µg/mL,BACTEC,1%
O=C(O)[C@H](CS)NC1CC(=O)N(Cc2ccccc2)C1=O,MIC,H37Rv,,BACTEC,≥12.8 µg/mL
O=[N+]([O-])c1cn2c(n1)OC[C@@H](OCc1ccc(Oc3ccc(C(F)(F)F)nc3)cn1)C2,MIC90,,,resazurin,0.06 µM
Cn1c(NNc2nc(NCc3ccco3)nc(NCc3ccco3)n2)nc(-c2ccc(Cl)cc2)c(C#N)c1=O,MIC,H37Rv,,,>12.5 µg/mL
COc1c(N2CC[C@@H](C(C)(C)N)C2)c(F)cc2c(=O)c3c(=O)[nH]sc3n(C3CC3)c12,MIC,Pan-susceptible clinical isolate 3,,,0.06 µg/mL
Cn1c(NNc2nc(Nc3ccc(Cl)cc3Cl)nc(Nc3ccc(Cl)cc3Cl)n2)nc(-c2ccc(Cl)cc2)c(C#N)c1=O,inhibition,H37Rv,12.5 µg/mL,,0%
C[N+](C)=c1ccc2nc3ccc(N)cc3sc-2c1.[Cl-],MIC bound,H37Rv,,BACTEC,>12.5 µg/mL
Cc1ccc2c(Cl)c(Cc3ccccc3)c(N3CCCCC3)nc2n1,inhibition,H37Rv,6.25 µg/mL,BACTEC,41%
OCC1OC2C(NC(=S)N2c2ccccc2)C(O)C1O,MIC bound,H37Rv,,resazurin,>6.25 µg/mL
CCNc1nc(NCC)nc(NNc2nc(-c3ccc(Cl)cc3)c(C#N)c(=O)n2C)n1,MIC,H37Rv,,,>12.5 µg/mL
CCCCCN(CCCCC)CCNc1ccc(C)c2sc3ccccc3c(=O)c12,inhibition,H37Rv,12.5 µg/mL,BACTEC,31%
O=[N+]([O-])c1cn2c(n1)OC[C@@H](OCc1ccc(-c3ccc(Oc4ccc(C(F)(F)F)cc4)cc3)cc1)C2,MIC90,,,low oxygen,4.7 µM
COc1cccc2c1C(=O)c1c(O)c3c(c(O)c1C2=O)C[C@@](O)(/C(C)=N/NC(=O)c1ccc(Cl)cc1)C[C@H]3O[C@H]1C[C@H](N)[C@H](O)[C@H](C)O1,MIC,ETA-R,,,12.5 µg/mL
O=C(CC(=O)Nc1ccc(Cl)cc1)Nc1ccc(Cl)cc1,MIC,,,,4 µM
Cn1c(NNc2nc(Nc3ccc(Cl)cc3)nc(Nc3ccc(Cl)cc3)n2)nc(-c2ccccc2)c(C#N)c1=O,MIC,H37Rv,,,>12.5 µg/mL
Nc1nc(N)nc(-c2ccc(OCc3ccc(F)cc3)cc2)n1,MIC,H37Rv,,resazurin,3.95 µM
Nc1nc(-c2ccccc2)c(CCCNc2ccc(C(=O)NC(CCC(=O)O)C(=O)O)cc2)c(=O)[nH]1,inhibition,H37Rv,12.5 µg/mL,BACTEC,-10%
NC(=S)c1ccccc1,MIC,H37Rv (INH-resistant),,,1024 µM
c1ccc(-c2c(CN3CCN(c4ccccc4)CC3)c3ccccn3c2CN2CCN(c3ccccc3)CC2)cc1,MIC bound,H37Rv,,resazurin,>6.25 µg/mL
COC(=O)c1cc(C2C3CC4CC(C3)CC2C4)c2ccccc2n1,MIC,H37Rv,,,>6.25 µg/mL
O=[N+]([O-])C1=CC(=N/Br)/C=CC/1=N\Br,inhibition,H37Rv,12.5 µg/mL,BACTEC,23%
COc1ccccc1Nc1nc(NNc2nc(-c3ccccc3)c(C#N)c(=O)n2C)nc(Nc2ccccc2OC)n1,inhibition,H37Rv,12.5 µg/mL,,63%
O=[N+]([O-])c1cn2c(n1)OC[C@@H](OCc1ccc(Oc3ccc(F)cc3)nc1)C2,MIC90,,,resazurin,0.12 µM
C/C(=C\CC[C@H](C)[C@@H]1CC[C@]2(C)C3=CCC4C(C)(C)C(=O)CC[C@]4(C)C3CC[C@@]12C)C(=O)O,MIC,,,,64 µg/mL
CCn1c(-c2ccc(N=Nc3c(C)[nH]n(CCO)c3=O)cc2)n[nH]c1=S,EC50,H37Rv,,,>12.5 µg/mL
c1cc2c(N3CCCCC3)cc(N3CCOCC3)nc2nc1N1CCCCC1,EC50,H37Rv,,BACTEC,>6.25 µg/mL
O=C(Nc1ccc(Cl)c(Cl)c1)C(=O)Nc1ccc(Cl)c(Cl)c1,MIC,,,,4 µM
Nc1ccc2c(N3CCCCC3)cc(N3CCCCC3)nc2n1,inhibition,H37Rv,6.25 µg/mL,BACTEC,72%
Nc1ccc(N=Nc2ccc(-c3ccc(N=Nc4c(S(=O)(=O)[O-])cc5cc(S(=O)(=O)[O-])c(N=Nc6cccc([N+](=O)[O-])c6)c(N)c5c4O)cc3)cc2)c2cc(S(=O)(=O)[O-])ccc12.[Na+].[Na+].[Na+],MIC bound,H37Rv,,BACTEC,>12.5 µg/mL
COc1cc(C(O)(CCN(C)C)C(c2cc(-c3cccc(F)c3)cnc2OC)c2cccc(OC)c2F)cc(OC)n1,MIC90,H37Rv,,resazurin,6.4 µM
COc1ccc2c(c1)C(=O)/C(=C/c1ccc([N+](=O)[O-])o1)CO2,inhibition,H37Rv,12.5 µg/mL,BACTEC,35%
CN(Cc1ccc(CO[C@@H]2COc3nc([N+](=O)[O-])cn3C2)cc1)Cc1ccc(OC(F)(F)F)cc1,MIC90,,,low oxygen,2.7 µM
O=C1c2ccccc2C(=O)c2c1ccc1c2OCO1,MIC,H37Rv,,BACTEC,12.5 µg/mL
COC(=O)Cc1cc(C2C3CC4CC(C3)CC2C4)nc2ccccc12,inhibition,H37Rv,6.25 µg/mL,,10%
Nc1ccc2c(N3CCCCC3)cc(N3CCOCC3)nc2n1,inhibition,H37Rv,6.25 µg/mL,BACTEC,6%
COc1cc([C@@](O)(CCN(C)C)[C@@H](c2cc(-c3ccc(C#N)cc3)cnc2OC)c2cccc(OC)c2F)cc(OC)n1,MIC90,H37Rv,,resazurin,11.16 µM
O=C1OC(c2ccccc2)=N/C1=C\c1ccc(Oc2ccc(Cl)c(Cl)c2)cc1,MIC bound,H37Rv,,BACTEC,>12.5 µg/mL
CCc1cc(C(N)=S)ccn1,MIC,H37Rv,,,20 µg/mL
CC1(C)OC(CO)[C@H]([C@@]23OC[C@H]4OC(C)(C)O[C@H]4[C@@H]2OC(C)(C)O3)O1,MIC bound,H37Rv,,resazurin,>6.25 µg/mL
CO[C@H]1/C=C/O[C@@]2(C)Oc3c(C)c(O)c4c(O)c(c5c(c4c3C2=O)NC2(CCN(CC(C)C)CC2)N=5)=NC(=O)/C(C)=C\C=C\[C@H](C)[C@H](O)[C@@H](C)[C@@H](O)[C@@H](C)[C@H](OC(C)=O)[C@@H]1C,MIC,Isolate 900233 drug-susceptible,,,0.063 µg/mL
O=C1C(=O)c2ccccc2C(O)=C1CCCc1ccc(C2CCCCCC2)cc1,inhibition,H37Rv,128 µg/mL,BACTEC,100%
COC(=O)c1ccc2c(C3CCCC3)cccc2n1,MIC,H37Rv,,,2 µg/mL

The first 10 rows once more:

| smiles | endpoint | strain | dose | method | result |
|---|---|---|---|---|---|
| Cc1[nH][nH]c(=O)c1N=Nc1ccc(-c2n[nH]c(=O)n2-c2ccccc2)cc1 | MIC | H37Rv |  |  | >12.5 µg/mL |
| N#CCCCCNC(=O)C1CCC(=O)N1 | MIC bound | H37Rv |  | BACTEC | >12.5 µg/mL |
| Cn1c(NNc2nc(NCc3ccco3)nc(NCc3ccco3)n2)nc(-c2ccccc2)c(C#N)c1=O | MIC | H37Rv |  |  | >12.5 µg/mL |
| NC(=S)c1ccc(Cl)cc1 | MIC | H37Rv (INH-resistant) |  |  | 512 µM |
| COc1cc([C@](O)(CCN(C)C)[C@@H](c2cc(-c3ccc(C)cc3)cnc2OC)c2cccc(OC)c2F)cc(OC)n1 | MIC90 | H37Rv |  | resazurin | 1.99 µM |
| NC[C@H]1O[C@H](O[C@H]2[C@H](O)[C@@H](O[C@H]3O[C@H](CO)[C@@H](O)[C@H](N)[C@H]3O)[C@H](N)C[C@@H]2N)[C@H](O)[C@@H](O)[C@@H]1O | MIC | H37RV (DL8280-R) |  |  | 25 µg/mL |
| O=C1C=C(Nc2ncn[nH]2)c2ccccc2C1=O | inhibition | H37Rv | 6.25 µg/mL |  | 18% |
| CCOC(=O)Cc1cc(C2CCCCC2)nc2ccccc12 | MIC | H37Rv |  |  | >6.25 µg/mL |
| COc1cc([C@@](O)(CCN(C)C)[C@H](c2cc(-c3ccc(OC(F)(F)F)cc3)cnc2OC)c2cccc(OC)c2F)cc(OC)n1 | MIC90 | H37Rv |  | resazurin | >10 µM |
| O=[N+]([O-])c1cn2c(n1)OC[C@@H](OCc1ccc(N3CCC(Oc4ccc(C(F)(F)F)nc4)CC3)cc1)C2 | MIC90 |  |  | low oxygen | 0.95 µM |